Anti-infective test results gathered from many reports (values: NIAID ChemDB through PubChem).

Common to all: growth or infection tests; organism: Herpes simplex virus 1

Rows are shuffled and stem from different studies. An empty or dashed field is not shown. ECn is the concentration giving n% inhibition of infection, replication or growth.

compound,read by,cell line,strain or isolate,read-out,value
O=c1[nH]c(=O)n([C@H]2C[C@H](O)[C@@H](CO)O2)cc1/C=C/Br,cytopathic effect,HEL,KOS GCV-resistant,EC50,35 µg/mL
O=c1c2ccccc2[se]n1-c1cc([N+](=O)[O-])ccn1,,,,MIC,5 µg/mL
NC(=O)c1nnn([C@@H]2C[C@H](CO)C[C@H]2O)c1N,plaque count,VERO,F,EC90,>100 µM
Nc1ncnc2c1ncn2[C@@H]1O[C@@H](CO)CC1F,,VERO,,EC50,>100 µM
O=C(O)Cc1ccc(O)c(O)c1,cytopathic effect,E6SM,B2006 (TK-),EC50,12 µg/mL
O=C(NS(=O)(=O)OC[C@H]1O[C@@H](n2ccc(=O)[nH]c2=O)[C@H](O)[C@@H]1O)O[C@H]1O[C@H](COC(=O)c2ccccc2)[C@@H](OC(=O)c2ccccc2)[C@H](OC(=O)c2ccccc2)[C@H]1OC(=O)c1ccccc1,plaque count,HeLa,KOS,EC50,75 µM
O=c1[nH]c(=O)n(C2OC(CO)CC2F)cc1I,,VERO,,EC50,>100 µM
O=c1c2ccccc2[se]n1-c1ccccn1,,,,MIC,2 µg/mL
CC(=O)Oc1ccc([C@@H]2CC(=O)c3c(cc(OC(C)=O)c(-c4c(OC(C)=O)cc5c(c4OC(C)=O)C(=O)C[C@@H](c4ccc(OC(C)=O)cc4)O5)c3OC(C)=O)O2)cc1,cytopathic effect,HFF,E-377,EC50,>4 µg/mL
Nc1ncnc2c1ncn2CCOCP(=O)(O)O,cytopathic effect,,KOS,EC50,26 µM
O=c1c2cccnc2[se]n1-c1ccc(Cl)cc1,,,,MIC,1 µg/mL
NC(=O)c1cn([C@@H]2C[C@H](CO)C[C@H]2O)nn1,plaque count,VERO,F,EC50,>100 µM
CC1(C)OC2C(O1)[C@@H](COC(N)=O)O[C@H]2n1ccc(=O)[nH]c1=O,plaque count,HeLa,KOS,EC50,>660 µM
C[n+]1cccc2c(=O)n(-c3ccccn3)[se]c21,,,,MIC,400 µg/mL
O=C(O)c1cc(O)c(O)c(O)c1,cytopathic effect,E6SM,B2006 (TK-),EC50,20 µg/mL
Cn1cc(NC(=O)c2cc(NC(=O)CCCCCC(=O)Nc3cc(C(=O)Nc4cc(C(=O)NCCC(N)=[NH2+])n(C)c4)n(C)c3)cn2C)cc1C(=O)NCCC(N)=[NH2+],cytopathic effect,PRK,KOS,EC50,>150 µg/mL
O=c1c2cccnc2[se]n1N(c1ccccc1)c1ccccn1,,,,MIC,2 µg/mL
Nc1ncnc2c1ccn2[C@@H]1C[C@H](CO)[C@@H](O)[C@H]1O,cytopathic effect,PRK,,EC50,≥10 µg/mL
COc1ccc2nc3cc(Cl)ccc3c(NCC(C)N(C)C)c2c1,plaque count,VERO 76,,EC50,>6 µM
CC(=O)O[C@H]1C[C@H](n2ccc(=O)[nH]c2=O)O[C@@H]1COS(=O)(=O)NC(=O)O[C@H]1O[C@H](COC(=O)c2ccccc2)[C@@H](OC(=O)c2ccccc2)[C@H](OC(=O)c2ccccc2)[C@H]1OC(=O)c1ccccc1,cytopathic effect,,,EC50,30 µM
Cc1cn([C@@H]2O[C@H](CO)[C@@H](O)[C@@H]2O)c(=O)[nH]c1=O,cytopathic effect,HEL,KOS PMEA-resistant,EC50,0.37 µg/mL
Cc1cc(O)cc(O)c1CC(=O)O,cytopathic effect,E6SM,B2006 (TK-),EC50,40 µg/mL
COc1ccc2nc3cc(Cl)ccc3c(NCC[C@@H]3CCCN4CCCC[C@H]34)c2c1,plaque count,VERO 76,,EC50,>3 µM
CCCn1[se]c2ncccc2c1=O,,,,MIC,0.4 µg/mL
Cc1cc(O)ccc1O,cytopathic effect,E6SM,B2006 (TK-),EC50,120 µg/mL
NC(=O)c1nnn([C@@H]2C[C@H](CCP(=O)(O)O)C[C@H]2O)c1N,plaque count,VERO,F,EC50,>100 µM
COc1ccc2nc3cc(Cl)ccc3c(Nc3ccco3)c2c1,plaque count,VERO 76,,EC50,>7 µM
Nc1ncnc2c1ncn2C1CC(CO)[C@@H](O)[C@H]1O,cytopathic effect,PRK,,EC50,7 µg/mL
Nc1nc2c(ncn2CCC(CO)CO)c(=O)[nH]1,cytopathic effect,HEL,KOS HPMPA-resistant,EC50,0.073 µg/mL
Cc1cn([C@H]2C[C@H](N=[N+]=[N-])[C@@H](CO)O2)c(=O)[nH]c1=O,plaque count,VERO,F,EC50,>10 µM
C[n+]1cccc(-n2[se]c3ccccc3c2=O)c1,,,,MIC,20 µg/mL
O=C(NS(=O)(=O)OC[C@@H]1CC[C@H](n2ccc(=O)[nH]c2=O)O1)O[C@H]1O[C@H](COC(=O)c2ccccc2)[C@@H](OC(=O)c2ccccc2)[C@H](OC(=O)c2ccccc2)[C@H]1OC(=O)c1ccccc1,cytopathic effect,,,EC50,75 µM
NC1=NC2C(C=CN2CC(CO)CCO)C(=O)N1,cytopathic effect,VERO,KOS,EC50,>10 µg/mL
O=c1[nH]c(=O)n([C@@H]2O[C@@H](CO)C[C@H]2F)cc1Cl,,VERO,,EC50,>40 µM
CC(=O)N[C@H]1[C@@H](OC(=O)NS(=O)(=O)OC[C@H]2O[C@@H](n3ccc(=O)[nH]c3=O)[C@H](OC(C)C)[C@@H]2OC(C)C)O[C@H](COC(C)=O)[C@@H](OC(C)=O)[C@@H]1OC(C)=O,plaque count,HeLa,KOS,EC50,>270 µM
Cn1cnc2nc(NCCO)nc(NCc3ccccc3)c21,ELISA,HFF,KOS,EC50,>100 µM
C[C@H](COc1cc(N)nc(N)n1)OCP(=O)(O)O,cytopathic effect,,KOS,EC50,58 µM
Nc1ccn(C[C@@H](CO)OCP(=O)(O)O)c(=O)n1,cytopathic effect,HEL,KOS S2242-resistant,EC50,0.56 µg/mL
Nc1nccc2c1ncn2[C@@H]1C[C@H](CO)[C@@H](O)[C@H]1O,cytopathic effect,PRK,,EC50,≥200 µg/mL
Nc1nc(N)c2ncn(CCOCP(=O)(O)O)c2n1,cytopathic effect,HEL,KOS PMEDAP-resistant,EC50,60 µg/mL
C[C@@H]1CC[C@H]2[C@@H](C)C(=O)O[C@@H]3OC4(C)CC[C@@H]1[C@]32OO4,cytopathic effect,E6SM,KOS,EC50,>400 µg/mL
C[C@H](Cn1cnc2c(N)ncnc21)OCP(=O)(O)O,cytopathic effect,,KOS,EC50,>350 µM
O=c1[nH]c(=O)n([C@H]2O[C@@H](CO)C[C@H]2F)cc1Cl,,VERO,,EC50,>51 µM
COc1ccc2nc3cc(Cl)ccc3c(N3CCN(c4ccccc4)CC3)c2c1,plaque count,VERO 76,,EC50,>100 µM
Cc1cc(=Nc2ccc3c(c2)c(N)cc(C)[n+]3C)nc(N)n1C,plaque count,HeLa,KOS,EC50,60 µM
CCC(CO)Nc1c2ccc(Cl)cc2nc2ccc(OC)cc12,plaque count,VERO 76,,EC50,>100 µM
O=c1c2cccnc2[se]n1N(c1ccccc1)c1cc(Cl)ccn1,,,,MIC,1 µg/mL